Counter-ions that a name gives are not always drawn. Like-named read-outs stand apart in the source and are kept apart here.

One data set has as its system HCV RNA replicon. Put plainly: HCV RNA replicon assay. The class given is cell-based, hepatitis C virus (HCV). As to conditions: for SI value: ratio IC50 / EC50. On the procedure:
A number of […] 7-deazaneplanocin compounds were tested in vitro to determine activity against hepatitis C virus (HCV).

The test system of another data set is SARS virus. The class given is cell-based. As to conditions: against SARS virus.
Another data set deals with Vaccinia. The class given is cell-based, vaccinia virus. As to conditions: VV; CPE; HFF Cells; SI = CC50/IC50.
In another data set the test system is Yellow Fever. Type of data set: cell-based. As to conditions: YF, Vero, SI = CC50/IC50.
Another data set has as its system Cowpox. Type of data set: cell-based, cowpox virus. Conditions: CPE, HFF Cells, SI = CC50/IC50.
The subject of another data set is SARS. The class given is cell-based. Conditions: Vero 76, SI = CC50/IC50.
The next data set relates to Flu A (H5N1). The class given is cell-based. Conditions: MDCK, SI = CC50/IC50.
In a further data set the test system is Rhinovirus. Kind of data set: antiviral assay, Rhinovirus in HeLa Ohio-1. The class given is cell-based. Conditions: RV, HO-1, SI = CC50/IC50.
Another data set relates to Flu A (H3N2). Type of data set: cell-based. Conditions: MDCK, SI = CC50/IC50.
The next data set has as its system PIV. Kind of data set: antiviral assay, PIV in MA-104. The class given is cell-based, parainfluenza virus. Conditions: SI = CC50/IC50.
A further data set has as its system Flu A (H1N1). Type of data set: cell-based. As to conditions: MDCK, SI = CC50/IC50.
For another data set, the system named is RSV A. Put plainly: antiviral assay, RSV A in MA-104. Type of data set: cell-based, respiratory syncytial virus A. Conditions: SI = CC50/IC50.
The test system of data set [1] is Hepatitis B Virus. Kind of data set: in vitro anti-HBV activity, VIR (extracellular virion HBV DNA). Type of data set: cell-based. On the procedure:
(§1) In the first biological experiment, a number of 7-deazaneplanocin compounds were tested in vitro to determine activity against hepatitis B virus (HBV).

For another data set, the system named is Measles. Put plainly: antiviral assay, Measles in CV-1. Type of data set: cell-based. As to conditions: SI = CC50/IC50.
Data set [2] deals with Hepatitis B Virus. Kind of data set: in vitro anti-HBV activity, RI (intracellular HBV DNA replication intermediates). Type of data set: cell-based. Conditions: SI = CC50/EC90. How it is done:
as §1

For another data set, the system named is Flu B. The class given is cell-based. Conditions: MDCK, SI = CC50/IC50.
A further data set concerns Dengue. Kind of data set: antiviral assay, Dengue in Vero. As to conditions: SI = CC50/IC50. Type of data set: cell-based.

Turning to `Nc1ncnc2c1c(Cl)cn2[C@@H]1C=C(CO)C(O)C1O` (stereo partly shown), the SI value in the data set with HCV RNA replicon (HT @ 100 μM) is on record as >3.48.
For the molecule `Nc1ncnc2c1c(Br)cn2[C@@H]1C=C(CO)C(O)C1O` (stereo partly shown), the SI value is > 1.91 in the data set with HCV RNA replicon (HT @ 20 μM) and 2.5 in the data set with HCV RNA replicon (HT @ 100 μM).
As to `Nc1ncnc2c1c(I)cn2[C@@H]1C=C(CO)C(O)C1O` (stereo partly shown), the results for the SI value with HCV RNA replicon (HT @ 5 μM) and in the data set with HCV RNA replicon (HT @ 100 μM) were > 1.63 and > 6.99, respectively.
Turning to `NC(=O)c1cn([C@@H]2C=C(CO)C(O)C2O)c2ncnc(N)c12` (stereo partly shown), in the data set with HCV RNA replicon (HT not given), the SI value came to 6.38.
Regarding “1-(4,5-Dihydroxy-3-hydroxymethyl-cyclopenten-2-enyl)-1H-[1,2,4]triazole-3-carboxylic acid amide [Compound 17a]”, the SI in the data set on SARS virus is > 4.8.
In the case of `Nc1nccc2c1ncn2[C@@H]1C=C(CO)[C@@H](O)[C@H]1O` [Compound 3-DNPA, (−)-1-[(1R,4R,5S)-3-(Hydroxymethyl)-4,5-dihydroxy-2-cyclopenten-1-yl]-4-aminoimidazo[4,5-c]pyridine Hydrochloride], the SI in the data set on Vaccinia is on record as >300; in the data set on Yellow Fever (NR) it was >100; in the data set with Yellow Fever (Visual), >100; in the data set on Cowpox, >300; in the data set on SARS (NR) it was 0.7; in the data set with SARS (Visual), 10. Moreover, the SI is reported as >100 in the data set with Flu A (H5N1) (NR); >100 in the data set with Flu A (H5N1) (Visual); 4 with Rhinovirus (NR); 32 in the data set on Rhinovirus (Visual); >100 in the data set on Flu A (H3N2) (NR); >100 in the data set with Flu A (H3N2) (Visual). The SI in the data set on HCV RNA replicon (HCV, HRR, Huh7 ET, SI = CC50/IC50) was 0.89; in the data set on PIV (NR), >100; in the data set with PIV (Visual), >100; with Flu A (H1N1) (NR), 25; in the data set with Flu A (H1N1) (Visual) it was >100; with RSV A (NR) it was >100. Moreover, the SI in the data set on RSV A (Visual) is reported as >100; in the data set on Hepatitis B Virus [1] (HBV, Huh7 ET, SI = CC50/IC50), 178; in the data set with Measles (NR) it was 12; in the data set with Measles (Visual), 10.
Consider `Nc1ncnc2c1c(I)cn2[C@@H]1C=C(CO)[C@@H](O)[C@H]1O` [Compound 13, 7-Deaza-7-Iodo Neplanocin A], for which the SI is on record as >51 with Hepatitis B Virus [2] and >167 in the data set on Hepatitis B Virus [1] (SI = CC50/EC90).
Regarding `NC(=O)c1cn(C2C=C(CO)C(O)C2O)nn1` (stereo not shown) [Compound 17c, 1-(4,5-Dihydroxy-3-hydroxymethyl-cyclopenten-2-enyl)-1H-[1,2,3]triazole-4-carboxylic acid amide], the SI with SARS virus is reported as > 2.1.
`C=Cc1cn([C@@H]2C=C(CO)[C@H](O)C2O)c2ncnc(N)c12` (stereo partly shown) [Compound 25, 7-Deaza-7-Vinyl-Substituted Neplanocin A]: the SI with Hepatitis B Virus [2] was >11; with Hepatitis B Virus [1] (SI = CC50/EC90) it was >33.
For `C#Cc1cn([C@@H]2C=C(CO)C(O)C2O)c2ncnc(N)c12` (stereo partly shown) [Compound 27, 7-Deaza-7-Acetylene-Neplanocin A], in that order: >40 and >188.
Regarding `Nc1nccc2ncn([C@@H]3C=C(CO)[C@@H](O)[C@H]3O)c12` [Compound N7-3-DNPA], the SI in the data set with Vaccinia is listed as >300; with Yellow Fever (NR), >100; with Yellow Fever (Visual) it was >100; in the data set with Cowpox, >300; in the data set on Flu B (NR) it was >100; with Flu B (Visual) it was >100. For the same molecule, the SI in the data set with SARS (NR) is >100; in the data set on SARS (Visual) it was 51; in the data set on Dengue (NR), >100; in the data set with Dengue (Visual), >100; in the data set on Flu A (H5N1) (NR), >100; with Flu A (H5N1) (Visual) it was >100. In addition, the SI in the data set with Flu A (H3N2) (NR) is recorded as 32; in the data set with Flu A (H3N2) (Visual) it was 32; in the data set with Flu A (H1N1) (NR) it was 32; in the data set on Flu A (H1N1) (Visual), 32; in the data set on Hepatitis B Virus [1] (HBV, Huh7 ET, SI = CC50/IC50) it was >300.
Consider `C#Cc1cn([C@@H]2C=C(CO)C(O)C2O)c2ncnc(N)c12` (stereo partly shown) [drawing 37], for which the values for the SI value in the data set on HCV RNA replicon (HT @ 20 μM) and in the data set on HCV RNA replicon (HT @ 100 μM) were > 1.63 and 2.44, respectively.

The values are drawn from US20090270431A1, “Cyclopentenol Nucleoside Compounds Intermediates for their Synthesis and Methods of Treating Viral Infections” (THE UNIVERSITY OF GEORGIA RESEARCH FOUNDATION, priority 2005, published 2009).
